Compound potency records, mixed from different reports. Data source: NIAID ChemDB in PubChem.

Common to all: whole-cell or culture tests; organism: Mycobacterium tuberculosis

MIC bound: limit read from a one-dose screen. An empty or dashed field is not shown. MIC50, MIC90 and the like: level of inhibition, or share of isolates inhibited. ECn is the concentration giving n% inhibition of infection, replication or growth. Percent inhibition refers to the dose given; in toxicity tests it is the harm to the cells. Rows are shuffled and stem from different studies.

| structure | strain | setting | read by | endpoint | dose | value |
|---|---|---|---|---|---|---|
| NC(=Nc1ccc(S(=O)(=O)Nc2cnc3ccccc3n2)cc1)/N=C(\N)Nc1ccc(Br)cc1 | H37Rv | - | resazurin | inhibition | 6.25 µg/mL | 99% |
| NC1CCN(c2c(F)cc3c(=O)c(C(=O)O)cn(C4CC4)c3c2Cl)C1 | ATCC 35828 | - | - | MBC | - | 0.125 µg/mL |
| C#C/C=C/C[C@@H](OC(C)=O)[C@H]1C/C=C\C[C@H](Br)[C@@H](CC)O1 | H37Rv | - | BACTEC | inhibition | 12.5 µg/mL | 8% |
| CC(CNCC(c1ccccc1)c1ccccc1)N[C@@H]1C[C@@H]2C[C@H]([C@H]1C)C2(C)C | - | - | - | MIC | - | 50 µM |
| O=C1NS(=O)(=O)c2ccccc21 | H37Rv | - | - | MIC | - | >100 µg/mL |
| CCCCC(C)C(C)N(C)c1cc(NC(=O)OCC)nc(N)c1N | H37Rv | - | - | inhibition | 12.5 µg/mL | 3% |
| Cc1cc(=O)c2ccc(Cl)c(C)c2[nH]1 | H37Rv | - | BACTEC | MIC bound | - | >12.5 µg/mL |
| O=[N+]([O-])c1ccc(-c2cccnc2)cc1 | H37Rv | - | - | MIC | - | >100 µg/mL |
| O=C(/C=C/c1ccccc1Br)c1ccccc1O | - | - | - | EC50 | - | <12.5 µg/mL |
| Cc1ccc(-n2c(=O)c3nn4c(=O)n(-c5ccc(C)cc5)c(=O)c4nn3c2=O)cc1 | H37Rv | - | BACTEC | MIC bound | - | >12.5 µg/mL |
| CCOC(=O)Nc1cc2nc(C)c(-c3cccc(N)c3)nc2c(N)n1 | H37Rv | - | - | EC50 | - | >12.5 µg/mL |
| O=c1cc(-c2ccccc2-c2cccc3c(=O)cc(-c4ccccc4)oc23)oc2ccccc12 | H37Rv | - | - | EC50 | - | >12.5 µg/mL |
| Cc1ccc2ccccc2c1NC(=O)CCC(=O)O | H37Rv | - | - | MIC | - | 100 µg/mL |
| COc1cc(OC)c2c(c1)OC(c1cc(OC)c(OC)c(OC)c1)CC2=O | H37Rv | - | - | inhibition | 12.5 µg/mL | 0% |
| N/C(=N\OC(=O)Nc1ccc(CSc2ccc(Cl)cc2)o1)c1ccccn1 | H37Rv | - | BACTEC | MIC bound | - | >12.5 µg/mL |
| CO[C@H]1/C=C/O[C@@]2(C)Oc3c(C)c(O)c4c(O)c(c(/C=N/N5CCN(C6CCCC6)CC5)c(O)c4c3C2=O)NC(=O)/C(C)=C\C=C\[C@H](C)[C@H](O)[C@@H](C)[C@@H](O)[C@@H](C)[C@H](OC(C)=O)[C@@H]1C | Isolate 900145 drug-susceptible | - | - | MIC | - | 0.125 µg/mL |
| CCCCCCCCCCCNCCN[C@H](CO)CC(C)C | - | - | - | MIC | - | 50 µM |
| C=CCNCCNCCCCCCCCCCC | - | - | - | MIC | - | 50 µM |
| CC(=O)NCCc1nc(-c2nc(C(=O)O)cs2)cs1 | H37Rv | - | BACTEC | inhibition | 12.8 µg/mL | 33% |
| Nc1cccc(C(=O)/C=C/c2ccccc2I)c1 | - | - | - | EC50 | - | <12.5 µg/mL |
| NC1CCN(c2nc3c(cc2F)c(=O)c(C(=O)O)cn3-c2ccc(F)cc2F)C1 | ATCC 35830 | - | - | MBC | - | >8 µg/mL |
| Nc1ncccc1/C=C/C(=O)c1ccc2c(ccc3ccccc32)c1 | - | - | - | inhibition | 12.5 µg/mL | 74% |
| CCCCC(CC)CN1CN(CC(CC)CCCC)CC(C)(NCCNC(C)C)C1 | - | - | - | MIC | - | 25 µM |
| COc1ccc2oc(=S)n(-c3ccc(Cl)c(Cl)c3)c(=S)c2c1 | My 331/88 | 14 d | - | MIC | - | 16 µM |
| N=C(N)SCc1ccc(Br)cc1 | H37Rv | - | - | MIC | - | >100 µg/mL |
| COC(=O)C(CO)NC(=O)C(Cc1cnc[nH]1)N(C(=O)OCc1ccccc1)C(=O)OCc1ccccc1 | H37Rv | - | BACTEC | MIC | - | ≥12.8 µg/mL |
| Cc1ccc(-n2c(=O)oc3ccc(Br)cc3c2=S)cc1 | My 331/88 | 14 d | - | MIC | - | 0.5 µM |
| C[C@@H]1CN(c2c(F)c(N)c3c(=O)c(C(=O)O)cn(C4CC4)c3c2F)C[C@H](C)N1 | DRUG-SUS | - | - | MIC50 | - | 0.06 µg/mL |
| CO[C@H]1/C=C/O[C@@]2(C)Oc3c(C)c(O)c4c(=O)c(c5oc6cc(N7CCN(CC(C)C)CC7)cc(=O)c6nc5c4c3=C2O)NC(=O)/C(C)=C\C=C\[C@H](C)[C@H](O)[C@@H](C)[C@@H](O)[C@@H](C)[C@H](OC(C)=O)[C@@H]1C | TN715 | - | - | MIC | - | 16 µg/mL |
| CCCn1c(=O)c2ccccc2[n+]2c(-c3ccc([N+](=O)[O-])cc3)csc12.[Br-] | H37Rv | - | BACTEC | MIC bound | - | >12.5 µg/mL |
| Fc1ccc(CCNCCNCC(c2ccccc2)c2ccccc2)cc1 | - | - | - | MIC | - | 25 µM |
| Cn1c(=O)cc2c3c(c(Br)ccc31)C(=O)c1ccccc1-2 | H37Rv | - | - | MIC | - | 100 µg/mL |
| CC1COc2c(N3CCN(C)CC3)c(F)cc3c(=O)c(C(=O)O)cn1c23 | ATCC 35820 | - | - | MBC | - | 1 µg/mL |
| C1=CCc2c(oc3ccccc23)C1 | H37Rv | - | - | MIC | - | 50 µg/mL |
| COc1ccc(/C=C/C(=O)c2c(O)cc(OC)cc2OC)cc1 | - | - | - | EC50 | - | >12.5 µg/mL |
| CCCCC(CC)CN1CN(CC(CC)CCCC)CC(C)(NCCNCCCO)C1 | - | - | - | MIC | - | 12.5 µM |
| Nc1ncccc1/C=C/C(=O)c1cc2ccccc2cc1O | - | - | - | inhibition | 12.5 µg/mL | 0% |
| Nc1ccc2nc3ccc(N)cc3[n+](-c3ccccc3)c2c1 | H37Rv | - | BACTEC | inhibition | 12.5 µg/mL | 98% |
| COC(=O)c1cc(Br)cc(Br)c1N | H37Rv | - | - | MIC | - | >100 µg/mL |
| O=c1oc2ccc(Br)cc2c(=S)n1-c1cccc(F)c1 | My 331/88 | 14 d | - | MIC | - | 2 µM |
| O=c1ccc2ccc3occc(=O)c3c2o1 | H37Rv | - | BACTEC | inhibition | 12.5 µg/mL | 0% |
| CCOC(=O)/C(=C/Nc1ccc(C)c(C)c1)C(=O)Nc1ccc(C)c(C)c1 | H37Rv | - | - | MIC | - | >100 µg/mL |
| S=c1oc2ccc(Br)cc2c(=S)n1-c1ccc(Cl)c(Cl)c1 | My 331/88 | 21 d | - | MIC | - | 2 µM |
| CC(=O)NC[C@H]1CN(c2ccc(N3CCOCC3)c(F)c2)C(=O)O1 | 2R | - | - | MIC | - | 0.5 µg/mL |
| CCOC(=O)Nc1cc(NCCc2ccc(S(N)(=O)=O)cc2)c(N)c(N)n1 | H37Rv | - | - | inhibition | 12.5 µg/mL | 0% |
| CC(C)(CO)C(O)C(=O)[O-].[Na+] | H37Rv | - | - | MIC | - | >100 µg/mL |
| CC(C)c1ccc2c(c1)CC[C@H]1[C@](C)(CNCCNC[C@@H](C)O)CCC[C@]21C | - | - | - | MIC | - | 50 µM |
| CC(C)CC(=O)c1ccccc1 | H37Rv | - | - | MIC | - | >100 µg/mL |
| CN[C@@H]1[C@H](O[C@H]2[C@H](O[C@H]3[C@H](O)[C@@H](O)[C@H](N=C(N)N)[C@@H](O)[C@@H]3N=C(N)N)O[C@@H](C)[C@]2(O)C=O)O[C@@H](CO)[C@H](O)[C@H]1O | TN933 (CB) | - | - | MIC | - | >2 µg/mL |
| O=S(=O)(O)CCN(CCO)CCO | H37Rv | - | BACTEC | MIC bound | - | >12.5 µg/mL |
| CCOC(=O)Nc1cc(NC(C)C(=O)Cc2ccccc2)c([N+](=O)[O-])c(N)n1 | H37Rv | - | - | inhibition | 12.5 µg/mL | 0% |
| CO[C@H]1/C=C/O[C@@]2(C)Oc3c(C)c(O)c4c(=O)c(c5oc6cc(N7CCN(C(C)C)CC7)cc(=O)c6nc5c4c3=C2O)NC(=O)/C(C)=C\C=C\[C@H](C)[C@H](O)[C@@H](C)[C@@H](O)[C@@H](C)[C@H](OC(C)=O)[C@@H]1C | 2912 (rifampin-sensitive) | - | - | MIC | - | 0.012 µg/mL |
| CCCCCCOCC(O)CNCCNCC(O)COCCCCCC | H37Rv | - | - | inhibition | 6.25 µg/mL | 29% |
| COc1ccc(CNCCNCCc2ccc(Cl)cc2Cl)cc1OC | - | - | - | MIC | - | 50 µM |
| CCOC(=N)CC(=N)OCC | H37Rv | - | BACTEC | MIC bound | - | >12.5 µg/mL |
| CNc1cc(Br)cc2c1C(=O)c1ccccc1C2=O | H37Rv | - | - | MIC | - | >100 µg/mL |
| CO[C@H]1/C=C/O[C@@]2(C)Oc3c(C)c(O)c4c(=O)c(c5oc6cc(N7CCN(CC(C)C)CC7)cc(=O)c6nc5c4c3=C2O)NC(=O)/C(C)=C\C=C\[C@H](C)[C@H](O)[C@@H](C)[C@@H](O)[C@@H](C)[C@H](OC(C)=O)[C@@H]1C | 2275 (rifampin-resistant) | - | - | MBC | - | 0.2 µg/mL |
| CCCCCCCCCCCNCCNCc1cccc2ccccc12 | - | - | - | MIC | - | 25 µM |
| CO[C@H]1/C=C/O[C@@]2(C)Oc3c(C)c(O)c4c(O)c(c5c(c4c3C2=O)NC2(CCN(CC(C)C)CC2)N=5)=NC(=O)/C(C)=C\C=C\[C@H](C)[C@H](O)[C@@H](C)[C@@H](O)[C@@H](C)[C@H](OC(C)=O)[C@@H]1C | Strain 100 (S531L) | - | - | MIC | - | 0.125 µg/mL |
| CCOc1ccccc1N(CCN(C)C)C(=O)C(c1ccccc1)c1ccccc1.Cl | H37Rv | - | BACTEC | inhibition | 128 µg/mL | 100% |
| COc1cccc(Cc2ccc(OC)c(OC)c2C(=O)O)c1O | H37Rv | - | - | MIC | - | >100 µg/mL |
| O=C1/C(=C\N2CCN(c3ccccc3)CC2)Cc2c(Cl)cccc21 | H37Rv | - | resazurin | inhibition | 6.25 µg/mL | -24% |
| C=CCc1cccc(CC=C)c1O | H37Rv | - | - | MIC | - | >100 µg/mL |
| O=c1cc(-c2cccc(-c3ccc4c(=O)cc(-c5ccccc5)oc4c3)c2)oc2ccccc12 | H37Rv | - | - | EC50 | - | >12.5 µg/mL |
| Oc1ccc(O)c(Cc2ccccc2)c1 | H37Rv | - | - | MIC | - | >100 µg/mL |
| O=C1c2c(O)ccc(O)c2C(=O)c2c(NCCNC(=O)[C@@H](O)[C@H](O)[C@@H](O)[C@@H](O)CO)ccc(NCCNC(=O)[C@@H](O)[C@H](O)[C@@H](O)[C@@H](O)CO)c21 | H37Rv | - | - | MIC bound | - | >6.25 µg/mL |
| CC(NCCNCC(c1ccccc1)c1ccccc1)c1cccc2ccccc12 | - | - | - | MIC | - | 6.25 µM |
| Cc1ncc([N+](=O)[O-])n1CCOc1c(Cl)cc(Cl)cc1CN(C)C1CCCCC1 | H37Rv | - | resazurin | MIC bound | - | >6.25 µg/mL |
| C[C@H]1COc2c(N3CCN(C)CC3)c(F)cc3c(=O)c(C(=O)O)cn1c23 | Drug-resistant | - | - | MIC50 | - | 0.25 µg/mL |
| O=C(O)c1ccccc1Oc1ccc([N+](=O)[O-])cc1 | H37Rv | - | - | MIC | - | >100 µg/mL |
| Cc1cccc(CNCCNCCCCc2ccccc2)c1 | - | - | - | MIC | - | 12.5 µM |
| Cl.N=C(N)c1ccc([N+](=O)[O-])cc1O | H37Rv | - | - | MIC | - | >100 µg/mL |
| CCC1(CC)OC(=O)C(=O)N1N(C)C | H37Rv | - | BACTEC | MIC bound | - | >12.5 µg/mL |
| CC[C@@H](CO)NCCN[C@@H](CC)CO | MDR8 | - | broth dilution / resazurin | MIC | - | 64 µg/mL |
| CCCCC1Nc2cc(NC(=O)OCC)nc(N)c2N=C1C | H37Rv | - | - | EC50 | - | <12.5 µg/mL |
| CCCCC(CC)CN1CN(CC(CC)CCCC)CC(C)(NCCNCc2ccccc2Sc2ccccc2CO)C1 | - | - | - | MIC | - | 25 µM |
| O=C(O)c1ccc(O)c(O)c1 | H37Rv | - | - | MIC | - | >100 µg/mL |
| CC1=NN(c2nc(N)nc(C/C(N)=N/O)n2)C(C)(C)C1 | H37Rv | - | resazurin | inhibition | 6.25 µg/mL | 23% |
| O=C1N(CO)CCN1CO | H37Rv | - | - | MIC | - | >100 µg/mL |
| NNC(=O)c1ccncc1 | 5S | - | - | MIC | - | 0.1 µg/mL |
| Nc1ccc2c(c1)oc1cc(N)ccc12 | H37Rv | - | - | MIC | - | 100 µg/mL |
| CCCCCCCCCCCNCCNCc1ccccc1OCC | - | - | - | MIC | - | 25 µM |
| O=C1NN2CCCN=C2c2cnccc21 | H37Rv | - | BACTEC | MIC bound | - | >12.5 µg/mL |
| O=C(O)c1nn(-c2ccc([As](=O)(O)O)cc2)cc1O | H37Rv | - | - | MIC | - | >100 µg/mL |

The last 8 rows once more:

structure	strain	setting	read by	endpoint	dose	value
O=C(O)c1ccc(O)c(O)c1	H37Rv	-	-	MIC	-	>100 µg/mL
CC1=NN(c2nc(N)nc(C/C(N)=N/O)n2)C(C)(C)C1	H37Rv	-	resazurin	inhibition	6.25 µg/mL	23%
O=C1N(CO)CCN1CO	H37Rv	-	-	MIC	-	>100 µg/mL
NNC(=O)c1ccncc1	5S	-	-	MIC	-	0.1 µg/mL
Nc1ccc2c(c1)oc1cc(N)ccc12	H37Rv	-	-	MIC	-	100 µg/mL
CCCCCCCCCCCNCCNCc1ccccc1OCC	-	-	-	MIC	-	25 µM
O=C1NN2CCCN=C2c2cnccc21	H37Rv	-	BACTEC	MIC bound	-	>12.5 µg/mL
O=C(O)c1nn(-c2ccc([As](=O)(O)O)cc2)cc1O	H37Rv	-	-	MIC	-	>100 µg/mL